Assay results published in US20100196919A1, “PEPTIDES, ANTIBODIES AND FRAGMENTS THEREOF FOR THE TREATMENT AND DIAGNOSTIC OF CELIAC DISEASE” (UNIVERSITÀ DEGLI STUDI DI VERONA, priority 2007, published 2010).

Columns and labels:
Format in all cases: binding, human
serum IgG antibodies = assay: ELISA for serum IgG antibodies against the synthetic peptides; settings: 60 patients with CD
serum IgA [1] = assay: DELFIA for serum IgA antibodies against the celiac peptide; settings: 60 controls' sera
serum IgA [2] = assay: ELISA for serum IgA antibodies against the synthetic peptides

Sequence: VVKVGGSSSLGW [celiac peptide]
- frequency of IgG antibodies against the peptide (serum IgG antibodies): 68.3%
- IgA reactivity to the peptide (serum IgA [1]): absent
- patients whose serum IgA recognized the peptide (serum IgA [2]; 22 patients with active disease on GCD (15 out of 22), direct and competitive ELISA): 68%
- IgA reactivity against the peptide (serum IgA [2]; 40 out of 40 patients with Crohn disease): not detected
- IgA reactivity towards the peptide (serum IgA [2]; 50 out of 50 patients with systemic lupus erythematosus): not detected
- IgA reactivity towards the peptide (serum IgA [2]; 90 out of 90 patients with systemic sclerosis): not detected
- patients' sera with reactivity against the synthetic peptide (serum IgA [2]; ELISA at end of library screening, individual patients' sera, isotype not stated): approximately 65%
- patients with serum IgA against the peptide (serum IgA [2]; another group of 38 patients with active disease (25 individuals)): 65.7%
- patients whose serum IgA recognized the peptide (serum IgA [2]; the same 22 patients on GFD, number of 22): four
